## PSTVd loop 15 mutant pool in Nicotiana benthamiana

Values reported by Wu et al. 2024 (doi:10.1371/journal.ppat.1012142).

Region: loop 15 of PSTVd (intermediate strain), upper and lower strand joined, each 5' to 3', the first 7 letters being the upper strand, closing pairs included. Wild type: GGAAACCGCUACUAC. Varied positions (N): GGAAACCGNNNNNNC.

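Three N. benthamiana plants were inoculated with the whole mutant pool. Progeny were sequenced from the inoculated region (day 5), the margin of the inoculated leaf (day 10) and systemic leaves (day 12).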

Numbers give reads per thousand; 0 = not seen among the reads, higher = more abundant. Each value is the mean of three plants. "Pool" is the share in the plasmid pool used as inoculum, on the same scale. The inoculated region was read from the minus strand, the other sites from the plus strand.

- GGAAACCGCAAGGAC (pool 0.192): inoculated region 0.303; leaf margin 0.167; systemic leaves 0.0357
- GGAAACCGUACCCCC (pool 0.272): inoculated region 0.0954; leaf margin 0; systemic leaves 0
- GGAAACCGGGGCACC (pool 0.256): inoculated region 0.117; leaf margin 0.0208; systemic leaves 0
- GGAAACCGCUGGGCC (pool 0.112): inoculated region 0.0442; leaf margin 0.0128; systemic leaves 0.00537
- GGAAACCGUAUAUAC (pool 0.224): inoculated region 0.345; leaf margin 0.202; systemic leaves 0.0866
- GGAAACCGUCUGAUC (pool 0.176): inoculated region 0.104; leaf margin 0.00668; systemic leaves 0.00537
- GGAAACCGUGCCCGC (pool 0.272): inoculated region 0.0643; leaf margin 0.0128; systemic leaves 0
- GGAAACCGUAAGCAC (pool 0.208): inoculated region 0.343; leaf margin 0.0900; systemic leaves 0.0811
- GGAAACCGUGUCGUC (pool 0.256): inoculated region 0.0947; leaf margin 0.00539; systemic leaves 0
- GGAAACCGGGGCCCC (pool 0.208): inoculated region 0.0877; leaf margin 0.0187; systemic leaves 0
- GGAAACCGAGAGAUC (pool 0.144): inoculated region 0.441; leaf margin 0.152; systemic leaves 0.0689
- GGAAACCGCUCUAGC (pool 0.208): inoculated region 0.150; leaf margin 0.0187; systemic leaves 0.00537
- GGAAACCGAAAUAUC (pool 0.272): inoculated region 0.399; leaf margin 0.112; systemic leaves 0.0161
- GGAAACCGCUCUCAC (pool 0.272): inoculated region 0.148; leaf margin 0.00668; systemic leaves 0
- GGAAACCGAGUAGAC (pool 0.208): inoculated region 0.0939; leaf margin 0; systemic leaves 0
- GGAAACCGGUUCCUC (pool 0.256): inoculated region 0.112; leaf margin 0.0128; systemic leaves 0.00537
- GGAAACCGACGGAUC (pool 0.320): inoculated region 0.0701; leaf margin 0; systemic leaves 0
- GGAAACCGCCGCUCC (pool 0.208): inoculated region 0.0811; leaf margin 0; systemic leaves 0
- GGAAACCGCCGAACC (pool 0.272): inoculated region 0.0552; leaf margin 0.00668; systemic leaves 0
- GGAAACCGGAAACUC (pool 0.224): inoculated region 0.0892; leaf margin 0; systemic leaves 0
- GGAAACCGUUUAUAC (pool 0.208): inoculated region 0.312; leaf margin 0.0867; systemic leaves 0.0771
- GGAAACCGAUGGUCC (pool 0.240): inoculated region 0.108; leaf margin 0; systemic leaves 0
- GGAAACCGUAGCUAC (pool 0.208): inoculated region 0.293; leaf margin 0.145; systemic leaves 0.0329
- GGAAACCGAUUAGCC (pool 0.224): inoculated region 0.111; leaf margin 0.00668; systemic leaves 0.00760
- GGAAACCGACCGACC (pool 0.208): inoculated region 0.0797; leaf margin 0.0228; systemic leaves 0
- GGAAACCGGUUGUUC (pool 0.240): inoculated region 0.307; leaf margin 0.150; systemic leaves 0.0107
- GGAAACCGUCGUUCC (pool 0.272): inoculated region 0.107; leaf margin 0; systemic leaves 0
- GGAAACCGAUACAUC (pool 0.192): inoculated region 0.312; leaf margin 0.117; systemic leaves 0.0268
- GGAAACCGCCGCGUC (pool 0.256): inoculated region 0.116; leaf margin 0.00539; systemic leaves 0
- GGAAACCGAGCCAGC (pool 0.0960): inoculated region 0.0977; leaf margin 0.0134; systemic leaves 0
- GGAAACCGUAUCAAC (pool 0.288): inoculated region 0.0579; leaf margin 0.0249; systemic leaves 0
- GGAAACCGAUUGUCC (pool 0.256): inoculated region 0.368; leaf margin 0.110; systemic leaves 0.0161
- GGAAACCGGAAACCC (pool 0.240): inoculated region 0.126; leaf margin 0.00668; systemic leaves 0.00537
- GGAAACCGUAAAGUC (pool 0.208): inoculated region 0.211; leaf margin 0.0208; systemic leaves 0.00537
- GGAAACCGUUUGGGC (pool 0.160): inoculated region 0.0812; leaf margin 0.00539; systemic leaves 0
- GGAAACCGCACGGAC (pool 0.176): inoculated region 0.294; leaf margin 0.122; systemic leaves 0.0161
- GGAAACCGAUACCUC (pool 0.224): inoculated region 0.365; leaf margin 0.136; systemic leaves 0.0439
- GGAAACCGCCGAGAC (pool 0.160): inoculated region 0.100; leaf margin 0.0121; systemic leaves 0
- GGAAACCGGCGUAUC (pool 0.192): inoculated region 0.0930; leaf margin 0.0262; systemic leaves 0

The authors trace changes outside the varied positions to PCR and sequencing errors or to mutation in the plant; presence does not show that a variant is infectious alone. For reference, wild type rose from 33.9 per thousand in the pool to 202, 200, 159 (inoculated region), 724, 746, 710 (leaf margin) and 856, 883, 880 (systemic leaves). With 43,870-66,106 reads a sample, very low values are single reads.